pKd: −log10 of the molar value.
Columns and labels:
Assay in all cases: whole-cell voltage clamp (kinetics of block of Na+ current)
hNaV1.7 N365A (human) = biological target: hNaV1.7 N365A (human)
hNaV1.7 D923A (human) = biological target: hNaV1.7 D923A (human)
hNaV1.7 E919Q (human) = biological target: hNaV1.7 E919Q (human)
hNaV1.7 Y362C (human) = biological target: hNaV1.7 Y362C (human)

μ-Conotoxin KIIIA (from UniProt P0C195 5-22) (peptide)
kon (hNaV1.7 N365A (human)): 1700 M⁻¹ s⁻¹ | pKd (hNaV1.7 D923A (human)): 5.63 | koff (hNaV1.7 D923A (human)): 0.00322 s⁻¹ | kon (hNaV1.7 D923A (human)): 1380 M⁻¹ s⁻¹ | pKd (hNaV1.7 E919Q (human)): 5.60 | koff (hNaV1.7 E919Q (human)): 0.00168 s⁻¹ | kon (hNaV1.7 E919Q (human)): 667 M⁻¹ s⁻¹ | pKd (hNaV1.7 Y362C (human)): 6.36 | koff (hNaV1.7 Y362C (human)): 0.000733 s⁻¹ | kon (hNaV1.7 Y362C (human)): 1680 M⁻¹ s⁻¹

— publication PMC10060530, “Molecular determinants of μ-conotoxin KIIIA interaction with the human voltage-gated sodium channel NaV1.7” (2023)
